Each structure is given as a SMILES string. Only a part is listed here, and it is no random draw. Calls of active or inactive are those of the source. Rule as the data show it: active = inhibition above about 50%; inactive = the rest.

For orientation: inhibition means the change of the read-out against control, counted positive when it falls.

This assay in a line: Mycobacterium tuberculosis growth inhibition, primary screen (AID 1259343). The settings on record: at 10 µM, stronger effect = higher value.
Regarding `COc1cc(Br)c([N+](=O)[O-])nc1[N+](=O)[O-]`, the inhibition is active: 99.7%.
Next, `CCOP1(=S)c2c(C)nn(-c3ccccc3)c2N=C(c2ccccc2)N1C1CC1` (stereo not drawn): inactive: 9.06%; `CC[N+](CC)=C1SC2CS(=O)(=O)C(Br)C2(C)S1` (stereo not drawn): active: 103%.

Values taken from PubChem BioAssay AID1259343 (VanderVen Lab, College of Veterinary Medicine, Cornell …, 2017).
